# System: Candida albicans
# Test: Antifungal activity against Candida albicans CMCC 76615 at 100 ug/ml
structure (smiles),measurement,value
COc1ccc2nc(NP(=O)(Oc3ccc(Cl)cc3)n3cnc4c(Cl)ccnc43)sc2c1 (stereo unspecified),diameter of the inhibition zone (DIZ),16.5 mm

# From ChEMBL document CHEMBL3758177, “Synthesis and biological evaluation of novel phosphoramidate derivatives of coumarin as chitin synthase inhibitors and antifungal agents” (Eur J Med Chem, 2016)
